Anti-infective test results gathered from many reports (values: NIAID ChemDB through PubChem).

Common to all: whole-cell or culture tests; species: Mycobacterium tuberculosis

An empty or dashed field is not shown. MIC50, MIC90 and the like: level of inhibition, or share of isolates inhibited. MIC bound comes from a single tested concentration. Inhibition is in % at the dose shown (toxicity tests: loss of growth or viability). ECn: concentration that inhibits the pathogen or its effect by n%. Lines come from different laboratories, so protocols vary.

structure	strain or isolate	tested at	read-out	read by	value
CC1C(=O)OC2CC[N+]3(C(C)C)CC=C(COC(=O)C(C)(O)C1(C)O)C23.[Br-]	H37Rv	-	MIC bound	BACTEC	>12.5 µg/mL
CC1COc2c(N3CCN(Cc4ccc5c(c4)OCO5)CC3)c(F)c([N+](=O)[O-])c3c(=O)c(C(=O)O)cn1c23	-	-	MIC99	agar	2.96 µM
Cc1ccc2oc(=O)n(-c3cccc(Cl)c3)c(=O)c2c1	CNCTC MY331/88	-	MIC	-	4 µM
C[C@H]1COc2c(N3CCN(C)CC3)c(F)cc3c(=O)c(C(=O)O)cn1c23	Strain 158	-	MIC	-	>16 µg/mL
c1ccc(-c2cc(N3CCOCC3)nc3nc(N4CCOCC4)ccc23)cc1	H37Rv	-	MIC	-	>6.25 µg/mL
Cc1ccc(-n2c(=O)oc3ccc(Br)cc3c2=O)cc1	CNCTC MY331/88	-	MIC	-	16 µM
CCCCc1nc(Cl)c(C2C(C(=O)Nc3ccccc3OC)=C(C)NC(C)=C2C(=O)Nc2ccccc2OC)[nH]1	H37Rv	6.25 µg/mL	inhibition	resazurin	52%
CCC(C)OC(=O)N1CCN(c2ccc3cc(-c4ccccc4)c(N4CCCCC4)nc3n2)CC1	H37Rv	-	MIC	-	6.25 µg/mL
O=c1ccc2nc3cc(Br)ccc3sc-2c1	H37Rv	12.5 µg/mL	inhibition	BACTEC	99%
COc1ccc2oc(=O)n(-c3cccc(F)c3)c(=O)c2c1	CNCTC MY331/88	-	MIC	-	125 µM
C[C@]1(COc2ccc(C3CCN(Cc4csc(-c5ccc(C(F)(F)F)cc5)n4)CC3)cc2)Cn2cc([N+](=O)[O-])nc2O1	H37Rv	-	MIC	-	0.006 µg/mL
O=C(NO)c1cccnc1	H37Rv	-	MIC bound	BACTEC	>12.5 µg/mL
O=C(N/N=C(\COc1ccc(Cl)cc1)N=Cc1cccnc1)c1ccncc1	INH-r	-	MIC	-	50 µg/mL
CCC(C)OC(=O)N1CCN(c2nc3nc(N4CCCCC4)ccc3cc2-c2ccccc2)CC1	H37Rv	6.25 µg/mL	inhibition	-	92%
O=c1oc2ccc(F)cc2c(=O)n1-c1ccccc1	CNCTC MY331/88	-	MIC	-	62 µM
Oc1cc(Cl)ccc1Oc1ccc(Cl)cc1Cl	H37Rv	-	EC50	fluorescence	0.6 µM
NCCCC(N)CC(=O)NCC1NC(=O)C(CO)NC(=O)C(NC(=O)CC(N)CCCN)CNC(=O)C(C2CCN=C(N)N2)NC(=O)/C(=C/NC(N)=O)NC1=O	H37RV (VIM-R)	-	MIC	-	5 µg/mL
CCC1CCCCN1CCNC/C=C(\C)CCC=C(C)C	H37Rv	-	MIC	-	1 µM
O=C(O)c1cn(C2CC2)c2cc(N3CCN(Cc4ccccc4)CC3)c(F)cc2c1=O	-	-	MIC50	-	1 µg/mL
C[C@]1(COc2ccc(N3CCC(CCOCc4ccc(C(F)(F)F)cc4)CC3)cc2)Cn2cc([N+](=O)[O-])nc2O1	H37Rv	-	MIC	-	0.024 µg/mL
CCCCc1nc(Cl)c(C2C(C(=O)Nc3cccc(OC)c3)=C(C)NC(C)=C2C(=O)Nc2cccc(OC)c2)[nH]1	H37Rv	6.25 µg/mL	inhibition	resazurin	78%
COc1cc([C@H]2OC[C@H]3[C@@H]2CO[C@@H]3c2cc(OC)c3c(c2)OCO3)cc(OC)c1OC	H37Rv	12.5 µg/mL	inhibition	BACTEC	14%
c1ccc(-c2cc(N3CCN(c4ccccc4)CC3)nc3nc(N4CCN(c5ccccc5)CC4)ccc23)cc1	H37Rv	6.25 µg/mL	inhibition	-	47%
OO	H37Rv	0.0005 µM	inhibition	-	0%
CN(C)CCCN1c2ccccc2Sc2ccc(Cl)cc21	Isolate A drug-susceptible	-	MIC	-	10 µg/mL
O=c1ccc2nc3ccccc3ccc-2c1	H37Rv	12.5 µg/mL	inhibition	BACTEC	99%
C/C(=N\NC(=O)c1ccncc1)c1ccc(F)cc1	6 PI	-	MIC	-	>20 µg/mL
S=C(S)N1CCCCC1	H37Rv	12.5 µg/mL	inhibition	BACTEC	100%
C[C@]1(COc2ccc(N3CCC(Nc4cc(Cl)cc(Cl)c4)CC3)cc2)Cn2cc([N+](=O)[O-])nc2O1	H37Rv	-	MIC	-	0.024 µg/mL
COc1ccc2c(-c3ccccc3)cc(N3CCOCC3)nc2n1	H37Rv	6.25 µg/mL	inhibition	-	35%
Nc1ccc([N+](=O)[O-])c2c1Oc1ccccc1O2	H37Rv	6.25 µg/mL	inhibition	resazurin	51%
C[C@]1(COc2ccc(N3CCC(COCc4cccc(OC(F)(F)F)c4)CC3)cc2)Cn2cc([N+](=O)[O-])nc2O1	H37Rv	-	MIC	-	0.024 µg/mL
COc1cc2c(cc1OC)CN(c1c(F)c([N+](=O)[O-])c3c(=O)c(C(=O)O)cn4c3c1OCC4C)CC2	MDR-TB	-	MIC99	agar	3.12 µM
CC(C)=CCC[C@H](C)[C@H]1CC[C@H](C)c2c1cc(C)c1ncoc21	-	12.5 µg/mL	inhibition	-	66%
CC(CNC[C@@H]1CC[C@H]2C[C@@H]1C2(C)C)NC[C@@H]1CC[C@H]2C[C@@H]1C2(C)C	H37Rv	-	MIC	-	0.2 µM
C[C@]1(COc2ccc(N3CCC(Nc4ccc(Cl)cc4Cl)CC3)cc2)Cn2cc([N+](=O)[O-])nc2O1	H37Rv	-	MIC	-	0.012 µg/mL
CCN1CCN(c2ccc3c(-c4ccccc4)cc(N4CCN(CC)CC4)nc3n2)CC1	H37Rv	6.25 µg/mL	inhibition	-	81%
O=C(N/N=C/c1ccc([N+](=O)[O-])o1)c1cnccn1	ATCC 27294	-	MIC	resazurin	3.12 µg/mL
NCCC[C@H](N)CC(=O)N[C@H]1CNC(=O)[C@H]([C@H]2C[C@H](O)NC(N)=N2)NC(=O)/C(=C/NC(N)=O)NC(=O)[C@H](CO)NC(=O)[C@H](CO)NC1=O	Isolate VIM-R/4	-	MIC	-	>40 µg/mL
CCC(C)[C@@H](NC)C(=O)N[C@@H](CC(C)C)C(=O)N1CC[C@@H]2Oc3ccc(OC)c(c3)/C=C\NC(=O)[C@@H]3CCCN3C(=O)[C@H]21	H37Ra	-	MIC	-	>200 µg/mL
O=C(N/N=C/c1ccc(N(CCCl)CCCl)cc1)C(=O)c1c[nH]c2ccccc12	H37Rv	12.5 µg/mL	inhibition	BACTEC	98%
CCC(C)[C@H](C(=O)N[C@@H](CC(C)C)C(=O)N1CC[C@@H]2Oc3ccc(OC)c(c3)/C=C\NC(=O)[C@@H]3CCCN3C(=O)[C@H]21)N(C)C	H37Ra	-	MIC	-	200 µg/mL
CCC(C)OC(=O)N1CCN(c2nc3nc(Cl)ccc3cc2-c2ccccc2)CC1	H37Rv	6.25 µg/mL	inhibition	-	67%
CC(=O)NC[C@H]1CN(c2ccc(N3CCOCC3)c(F)c2)C(=O)O1	Strain 370	-	MIC	-	0.25 µg/mL
CC1COc2c(N3CCN(C(=O)C4COc5ccccc5O4)CC3)c(F)c([N+](=O)[O-])c3c(=O)c(C(=O)O)cn1c23	-	-	MIC99	agar	2.81 µM
Cc1cc(C)nc(NN=O)c1	H37Rv	-	MIC bound	BACTEC	>12.5 µg/mL
N/C(COc1ccccc1Cl)=N/NC(=O)c1ccncc1	H37Rv(ATCC25584)	-	MIC	-	25 µg/mL
CCCCc1nc(Cl)c(C2C(C(=O)Nc3ccc(Cl)cc3)=C(C)NC(C)=C2C(=O)Nc2ccc(Cl)cc2)[nH]1	H37Rv	6.25 µg/mL	inhibition	resazurin	99%
O=C(N/N=C/c1cccs1)c1cnccn1	ATCC 27294	-	MIC	resazurin	>100 µg/mL
COc1cccc2c1C(=O)c1c(O)c3c(c(O)c1C2=O)C[C@@](O)(/C(C)=N/NC(=O)c1ccc(Cl)c(Cl)c1)C[C@H]3O[C@H]1C[C@H](N)[C@H](O)[C@H](C)O1	EMB-R	-	MIC	-	12.5 µg/mL
CN1CCN(c2cc3c(cc2F)c(=O)c(C(=O)O)cn3C2CC2)CC1	-	-	MIC50	-	0.125 µg/mL
O=C(N/N=C(\COc1ccc([N+](=O)[O-])cc1)N=Cc1cccnc1)c1ccncc1	H37Rv(ATCC25584)	-	MIC	-	50 µg/mL
C[C@]1(COc2ccc(N3CCN(C/C=C/c4ccccc4C(F)(F)F)CC3)cc2)Cn2cc([N+](=O)[O-])nc2O1	H37Rv	-	MIC	-	0.012 µg/mL
Cc1ccc(N=C=O)cc1[N+](=O)[O-]	H37Rv	-	MIC bound	BACTEC	>12.5 µg/mL
COc1cccc2c1cc1c3c(cc4c(c32)OCO4)C(=O)N1	H37RvEr	-	MIC	resazurin	12.5 µg/mL
O=C(N/N=C/c1ccccc1)c1cnccn1	ATCC 27294	-	MIC	resazurin	>100 µg/mL
COc1ccc2cc(-c3ccccc3)c(N3CCN(C(=O)OC(C)C)CC3)nc2n1	H37Rv	-	MIC	-	>6.25 µg/mL
O=C(N/N=C/c1ccco1)c1cnccn1	ATCC 27294	-	MIC	resazurin	>100 µg/mL
C[C@H]1COc2c(N3CCC(n4c(=O)[nH]c5cc(Cl)ccc54)CC3)c(F)c([N+](=O)[O-])c3c(=O)c(C(=O)O)cn1c23	MDR-TB	-	MIC99	agar	0.34 µM
CCCCc1nc(Cl)c(C2C(C(=O)Nc3cccc(C)c3)=C(C)NC(C)=C2C(=O)Nc2cccc(C)c2)[nH]1	H37Rv	6.25 µg/mL	inhibition	resazurin	56%
COc1cc(OC)c2cc([N+](=O)[O-])c3ccc(=O)oc3c2c1	H37RvIr	-	MIC	resazurin	12.5 µg/mL
C1CCCC(NCCNC2C3CC4CC(C3)CC2C4)CCC1	H37Rv	-	MIC	-	6 µM
C[C@@H]1CN(c2c(F)c(N)c3c(=O)c(C(=O)O)cn(C4CC4)c3c2F)C[C@H](C)N1	18 strains	-	MIC50	-	0.25 µg/mL
C/C(=N\NC(=O)c1ccncc1)c1ccc(Cl)cc1Cl	16PI	-	MIC	-	>20 µg/mL
Cc1cccc(OC/C(N=Cc2ccncc2)=N\NC(=O)c2ccncc2)c1	H37Rv(ATCC25584)	-	MIC	-	50 µg/mL
C[C@]1(COc2ccc(N3CCC(Cc4ccc(OC(F)(F)F)cc4)CC3)cc2)Cn2cc([N+](=O)[O-])nc2O1	H37Rv	-	MIC	-	0.006 µg/mL
CCCCCCC/C=C/C(=O)OC1C(OC2C(OC(CCCCCCC)CC(=O)OC(CCCCCCC)CC(=O)O)OC(C)C(O)C2O)OC(C)C(O)C1O	H37Rv	-	MIC bound	BACTEC	>12.5 µg/mL
C=CCN(CCNC/C=C(\C)CCC=C(C)C)C1CCCC1	H37Rv	-	MIC	-	1 µM
CO/C(=N\N=C\c1ccc(Cl)cc1Cl)c1ccncc1	6 PI	-	MIC	-	>20 µg/mL
O=C(N/N=C/c1ccc(-c2ccccn2)cc1)c1cnccn1	ATCC 27294	-	MIC	resazurin	>100 µg/mL
CC1CC(NC(=S)S)CC(C)(C)C1	H37Rv	12.5 µg/mL	inhibition	BACTEC	-4%
C[C@]1(COc2ccc(N3CCC(OCc4ccc(OC(F)(F)F)cc4)CC3)cc2)Cn2cc([N+](=O)[O-])nc2O1	H37Rv	-	MIC	-	0.003 µg/mL
NC(=Nc1ccc(Br)cc1)/N=C(\N)Nc1cccc(S(=O)(=O)Nc2ncc(Cl)cn2)c1	-	-	MIC bound	resazurin	>6.25 µg/mL
COc1ccc2c(-c3ccccc3)cc(N3CCNCC3)nc2n1	H37Rv	6.25 µg/mL	inhibition	-	85%
Cc1ccc(N=Nc2c(-c3ccccc3)nn(C(=S)S)c2-c2ccccc2)cc1	H37Rv	-	MIC bound	BACTEC	>12.5 µg/mL
C[C@]1(COc2ccc(N3CCC(OC/C=C/c4ccc(OC(F)(F)F)cc4)CC3)cc2)Cn2cc([N+](=O)[O-])nc2O1	H37Rv	-	MIC	-	0.0015 µg/mL
CC1(C)NN=C2C(=CC=C3NNC(C)(C)N32)n2cccc21.Cl.Cl	H37Rv	12.5 µg/mL	inhibition	BACTEC	0%
Nc1cc(O)c(C(=O)O)cc1F	H37Rv	-	MIC90	resazurin	<3.13 µg/mL
O=c1[nH]c(Nc2nc3ccccc3[nH]2)nc(O)c1Cc1ccccc1	-	0.5 µM	inhibition	BACTEC	0%
C/C(=N\NC(=O)c1ccncc1)c1cccc(Cl)c1	6 PI	-	MIC	-	>20 µg/mL
COc1ccc(-c2oc(C=Nc3ccccc3)c([N+](=O)[O-])c2-c2ccc(OC)c(OC)c2)cc1OC	H37Rv	12.5 µg/mL	inhibition	BACTEC	-11%
CC(C)=CCC/C(C)=C/CNCCNC(c1ccccc1)c1ccccc1	H37Rv	-	MIC	-	1 µM
CC(C)[C@H](NC(=O)CNC(=O)[C@@H]1CCCN1C(=O)[C@@H](NC(=O)OC(C)(C)C)C(C)C)C(=O)NCC(=O)OCc1ccccc1	H37Rv	-	MIC bound	resazurin	>6.25 µg/mL
Cc1ccc(OC/C(N)=N\NC(=O)c2ccncc2)cc1	INH-r	-	MIC	-	50 µg/mL
CCC[N+]12CC=C3COC(=O)C(C)(O)C(C)(O)C(C)C(=O)OC(CC1)C32.[Br-]	H37Rv	-	MIC bound	BACTEC	>12.5 µg/mL
C[C@H]1COc2c(N3CCC(O)(c4ccc(Cl)cc4)CC3)c(F)c([N+](=O)[O-])c3c(=O)c(C(=O)O)cn1c23	MDR-TB	-	MIC99	agar	3.01 µM

4 of the rows above, restated:

Cc1cccc(OC/C(N=Cc2ccncc2)=N\NC(=O)c2ccncc2)c1 ; strain or isolate: H37Rv(ATCC25584) ; read-out: MIC ; value: 50 µg/mL
COc1ccc2cc(-c3ccccc3)c(N3CCN(C(=O)OC(C)C)CC3)nc2n1 ; strain or isolate: H37Rv ; read-out: MIC ; value: >6.25 µg/mL
O=C(N/N=C/c1ccc(N(CCCl)CCCl)cc1)C(=O)c1c[nH]c2ccccc12 ; strain or isolate: H37Rv ; tested at: 12.5 µg/mL ; read-out: inhibition ; read by: BACTEC ; value: 98%
Cc1ccc(N=Nc2c(-c3ccccc3)nn(C(=S)S)c2-c2ccccc2)cc1 ; strain or isolate: H37Rv ; read-out: MIC bound ; read by: BACTEC ; value: >12.5 µg/mL